Data from patent US20040229242, “Methods of capturing, detecting and quantifying RNA:DNA hybrids and a modified RNase H useful therein” (published 2004).

Legend:
[1] = molecular target: T1, RNase H1 chimeric D134A mutant (Escherichia coli / Yersinia pestis / Klebsiella pneumoniae chimera?) (UniProt A4TL54); experiment: competition; settings: 25 C
T1 sequence: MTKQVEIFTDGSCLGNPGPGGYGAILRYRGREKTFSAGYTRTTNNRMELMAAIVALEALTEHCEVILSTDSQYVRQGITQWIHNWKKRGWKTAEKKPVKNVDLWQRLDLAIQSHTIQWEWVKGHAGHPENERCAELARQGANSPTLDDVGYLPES

[2] = molecular target: T2, RNase H1 combined mutant (chimera + G94) (Escherichia coli / Yersinia pestis / Klebsiella pneumoniae chimera?) (UniProt A4TL54); experiment: competition; settings: 25 C
T2 sequence: T1 sequence with E94G

[3] = competition vs RNA:DNA#1, filter binding
[4] = competition vs RNA:DNA#2, filter binding
[5] = competition vs RNA:DNA#3, filter binding

“heat-denatured sheared salmon sperm ssDNA” was tested, and the IC50 [1, 3] was 12 µM, the IC50 [1, 4] was 55 µM and the IC50 [1, 5] was 33 µM. The IC50 [2, 3] was 94 µM, the IC50 [2, 4] was 84 µM and the IC50 [2, 5] was 44 µM.

Residue numbers refer to the chain shown, from its start.
